Anti-infective test results gathered from many reports (values: NIAID ChemDB through PubChem).

All rows: host cell toxicity; cell line: SupT1; read-out: CC50

Blank or dashed fields: not listed here. CCn: concentration that lowers growth or viability of the cells by n%. Lines come from different laboratories, so protocols vary.

| structure | method | value |
|---|---|---|
| OC[C@H]1O[C@@H](n2c(Br)nc3cc(Cl)c(Cl)cc32)[C@H](O)[C@@H]1O | neutral red | 69 µM |
| COC(=O)CC[C@@H]1NC(=O)C[C@@H](CCCCCCCC(C)C)OC(=O)[C@H](C(C)C)NC(=O)[C@@H](CC(C)C)NC(=O)[C@H](CC(=O)OC)NC(=O)[C@H](C(C)C)NC(=O)[C@@H](CC(C)C)NC(=O)[C@H](CC(C)C)NC1=O | WST / absorbance | 86.7 µM |
| Nc1nc2c(ncn2COC(CO)CO)c(=O)[nH]1 |  | 50 µM |
| CC(C)CCCCCCCC[C@@H]1CC(=O)N[C@@H](CCC(=O)O)C(=O)N[C@@H](CC(C)C)C(=O)N[C@H](CC(C)C)C(=O)N[C@@H](C(C)C)C(=O)N[C@@H](CC(=O)O)C(=O)N[C@H](CC(C)C)C(=O)N[C@@H](CC(C)C)C(=O)O1 | WST / absorbance | 83.5 µM |
| CC(C)=CCC/C(C)=C/CC/C(C)=C/Cc1c(O)cc2c(c1OS(=O)(=O)O)CN(CCO)C2=O | WST / absorbance | 99.7 µM |
| C=C1CN(S(=O)(=O)c2ccc(C)cc2)CCCN(Cc2ccccn2)CCCN(S(=O)(=O)c2ccc(C)cc2)C1 | trypan blue / propidium iodide | >75 µM |
| Nc1ncc2c(ncn2COC(CO)CO)n1 |  | 0.051 µM |
| C=C1CN(S(=O)(=O)c2ccc(C)cc2)CCCN(Cc2ccncc2)CCCN(S(=O)(=O)c2ccc(C)cc2)C1 | trypan blue / propidium iodide | >75 µM |
| O=C(O)C1=CC(=C(c2ccc(O)c(C(=O)O)c2)c2ccc(O)c(C(=O)O)c2)C=CC1=O |  | 52 µM |
| COc1cc(O)c2c(c1O)C(=O)c1cc(C)ncc1C2=O | MTT | 122.3 µg/mL |
| C=C1CN(S(=O)(=O)c2ccc(C)cc2)CCCN(CC2CC2)CCCN(S(=O)(=O)c2ccc(C)cc2)C1 | trypan blue / propidium iodide | >75 µM |
| Nc1ccn(C[C@@H](CO)OCP(=O)(O)O)c(=O)n1 | neutral red | >159 µM |
| O=c1[nH]c(=O)n([C@H]2C[C@H](O)[C@@H](CO)O2)cc1/C=C/Br |  | 20 µM |
| CCC(C)CCCCCCCC[C@@H]1CC(=O)N[C@@H](CCC(=O)O)C(=O)N[C@@H](CC(C)C)C(=O)N[C@H](CC(C)C)C(=O)N[C@@H](C(C)C)C(=O)N[C@@H](CC(=O)O)C(=O)N[C@H](CC(C)C)C(=O)N[C@@H](CC(C)C)C(=O)O1 | WST / absorbance | 67.9 µM |
| CC(C)=CCC/C(C)=C/CC/C(C)=C/Cc1c(O)cc2c(c1O)CNC2=O | WST / absorbance | 99.5 µM |
| COC1=CC(=O)c2c(O)c(C)c(CC(C)=O)c(O)c2C1=O | MTT | 2.7 µg/mL |
| CC(C)=CCC/C(C)=C/CC/C(C)=C/Cc1c(O)cc2c(c1O)CN(CCO)C2=O | WST / absorbance | 20.4 µM |
| CC(C)Nc1nc2cc(Cl)c(Cl)cc2n1[C@H]1O[C@@H](CO)[C@H](O)[C@@H]1O |  | >105 µM |
| CC(C)CCCCCCCC[C@@H](O)CC(=O)N[C@@H](CCC(=O)O)C(=O)N[C@@H](CC(C)C)C(=O)N[C@H](CC(C)C)C(=O)N[C@H](C(=O)N[C@@H](CC(=O)O)C(=O)N[C@H](CC(C)C)C(=O)N[C@@H](CC(C)C)C(=O)O)C(C)C | WST / absorbance | >100 µM |
| NC1=NC2C(C=CN2CC(CO)CCO)C(=O)N1 |  | 107 µM |
| C=C1CN(S(=O)(=O)c2ccc(C)cc2)CCCN(CC(C)C)CCCN(S(=O)(=O)c2ccc(C)cc2)C1 | trypan blue / propidium iodide | >75 µM |
| CC(C)CCCCCCCCC[C@@H]1CC(=O)N[C@@H](CCC(=O)O)C(=O)N[C@@H](CC(C)C)C(=O)N[C@H](CC(C)C)C(=O)N[C@@H](C(C)C)C(=O)N[C@@H](CC(=O)O)C(=O)N[C@H](CC(C)C)C(=O)N[C@@H](CC(C)C)C(=O)O1 | WST / absorbance | >100 µM |

Again, the opening 3 rows:

structure	method	value
OC[C@H]1O[C@@H](n2c(Br)nc3cc(Cl)c(Cl)cc32)[C@H](O)[C@@H]1O	neutral red	69 µM
COC(=O)CC[C@@H]1NC(=O)C[C@@H](CCCCCCCC(C)C)OC(=O)[C@H](C(C)C)NC(=O)[C@@H](CC(C)C)NC(=O)[C@H](CC(=O)OC)NC(=O)[C@H](C(C)C)NC(=O)[C@@H](CC(C)C)NC(=O)[C@H](CC(C)C)NC1=O	WST / absorbance	86.7 µM
Nc1nc2c(ncn2COC(CO)CO)c(=O)[nH]1		50 µM